Data published in patent US6663881B2 (priority 1993, dated 2003).

Key:
Assay in all cases: MTT assay 48 hours after 5-minute exposure
Details in all cases: 5 minutes exposure, 48 hours recovery
[1] = tested on: BO54 marker-positive smooth muscle cells; format: cell-based, baboon
[2] = tested on: A375 m/m marker-positive cells; format: cell-based, human
[3] = tested on: HT29 marker-negative cells; format: cell-based

Measured: inhibition of metabolic activity (MTT)

Roridin A
non-specifically inhibitory: all assays above
